Compound potency records, mixed from different reports. Data source: NIAID ChemDB in PubChem.

Shared fields: tests in culture; species: Mycobacterium tuberculosis

ECn is the concentration giving n% inhibition of infection, replication or growth.

smiles,setting,cell line,method,dose,endpoint,changes,strain,result
CC(C)CCc1ccc(Oc2ccc(Cl)cc2Cl)c(O)c1,,,,,MIC,,H37Rv,60 µM
C[C@H](O)[C@H](O)[C@@H](O)[C@@H](O)[C@H](O)C(=O)NNc1ccccc1,,,resazurin,,MIC bound,,H37Rv,>6.25 µg/mL
Cc1ccc(-c2cc(-c3ccc(Cl)cc3)nc(/N=C3\C(=O)N(CN(C)C)c4ccc(Br)cc43)n2)cc1,,,BACTEC,,EC50,,H37Rv,<6.25 µg/mL
NNC(=O)CNc1ccc2ccccc2c1,21 d,,,,EC50,,H37Rv,<1 µg/mL
N[C@@H]1CONC1=O,,,agar,30 µg/mL,inhibition,,35 strains,100%
Cc1ccc(-c2cc(-c3ccc(Cl)cc3)nc(/N=C3\C(=O)N(CN4CCCCC4)c4ccc(Cl)cc43)n2)cc1,,,BACTEC,6.25 µg/mL,inhibition,,H37Rv,87%
O=C(N=Nc1c(O)[nH]c2ccccc12)c1ccc(O)cc1O,,,resazurin,,MIC50,,H37Ra,>50 µg/mL
Cc1c(S(=O)(=O)c2ccccc2)[n+](=O)c2cc(F)c(F)cc2n1[O-],,,,,MIC,,H37Rv,>6.25 µg/mL
C=C1C(=O)N[C@@H](CC(C)C)C(=O)N[C@H](CC(C)C)C(=O)N[C@H](C(=O)O)[C@H](C)C(=O)N[C@H](CCCN=C(N)N)C(=O)N[C@@H](/C=C/C(C)=C/[C@H](C)[C@H](Cc2ccccc2)OC)[C@@H](C)C(=O)N[C@@H](C(=O)O)CCC(=O)N1C,,,resazurin,,MIC,Rifampicin-resistant,,13.2 µM
CO[C@H]1/C=C/O[C@@]2(C)Oc3c(C)c(O)c4c(O)c(c(/C=N/N5CCCCCCCCCCCC5)c(O)c4c3C2=O)NC(=O)/C(C)=C\C=C\[C@H](C)[C@H](O)[C@@H](C)[C@@H](O)[C@@H](C)[C@H](OC(C)=O)[C@@H]1C,,,BACTEC,,MIC bound,,H37Rv,≤12.5 µg/mL
CCOC(=O)N1CCN(c2ccc(C3CC(c4ccc([N+](=O)[O-])o4)=NO3)cc2)CC1,,,,,MIC,,HN878,0.006 µg/mL
O=C1c2ccccc2C(=O)N1N=Cc1ccc(O)c(O)c1,,,resazurin,,MIC50,,H37Rv,>50 µg/mL
Nc1nc(-c2cccc([N+](=O)[O-])c2)c(N=Nc2cccc([N+](=O)[O-])c2)s1,,,BACTEC,,MIC bound,,H37Rv,>6.25 µg/mL
O=C(N=Nc1c(O)[nH]c2ccccc12)c1ccc([N+](=O)[O-])cc1Cl,,,resazurin,,MIC50,,H37Rv,>50 µg/mL
NNC(=O)c1ccncc1,,,turbidity,,MIC90,,H37Rv,0.12 µM
O=C(N=Nc1c(O)[nH]c2ccc(Br)cc12)c1ccccn1,,,resazurin,,MIC50,,H37Ra,>50 µg/mL
CN(C)[C@@H]1C(=O)C(C(N)=O)=C(O)[C@@]2(O)C(=O)C3=C(O)c4c(O)cccc4C[C@H]3C[C@@H]12,,,BACTEC,,MIC,,H37Rv,≥12.8 µg/mL
CC(=O)Nc1ccc(-n2cc(C(=O)O)c(=O)c3cc(F)c(N4CCN(C)CC4)cc32)cc1,,,BACTEC,6.25 µg/mL,inhibition,,H37Rv,15%
CC[C@H]1OC(=O)[C@H](C)[C@@H](O[C@H]2C[C@@](C)(OC)[C@@H](O)[C@H](C)O2)[C@H](C)[C@@H](O[C@@H]2O[C@H](C)C[C@H](N(C)C)[C@H]2O)[C@](C)(OC)C[C@@H](C)C(=O)[C@H](C)[C@@H](O)[C@]1(C)O,,,,,MIC90,,30 strains,>10 µg/mL
Cc1occc1C(=S)Nc1ccc(Cl)c(/C=N/OC2CCCC2)c1,,,BACTEC,12.5 µg/mL,inhibition,,H37Rv,98%
CCn1cc(C(=O)O)c(=O)c2cc(F)c(N3CCN(CC(=O)c4ccccc4)CC3)c(F)c21,,VERO,BACTEC,6.25 µg/mL,inhibition,,H37Rv,100%
CC(C)(C)c1nc2c(o1)C(=O)c1ccccc1C2=O,,,BACTEC,,MIC,,H37Rv,1.6 µg/mL
Nc1ccc(O)c(C(=O)/C=C/c2ccccc2)c1,,,,,EC50,,,>12.5 µg/mL
C[C@H]1COc2c(N3CCN(C)CC3)c(F)cc3c(=O)c(C(=O)O)cn1c23,,,,,MIC50,,19 strains,>0.25 µg/mL
CCc1[nH]c2ccccc2c1C(=O)c1ccncc1,,,BACTEC,,MIC bound,,H37Rv,>6.25 µg/mL
Cn1c(O)c(N=NC(=O)c2ccc(O)cc2O)c2ccccc21,,,resazurin,,MIC50,,H37Rv,>50 µg/mL
O=[n+]1c(Sc2ccccc2)c(CBr)n([O-])c2cc(F)c(F)cc21,,,,6.25 µg/mL,inhibition,,H37Rv,48%
CCOc1ccc(NC(=S)Nc2ccc(OCC(C)C)cc2)cc1,,,,,MIC,,BCG #256,31.3 µg/mL
CC(C)C[C@@H]1NC(=O)[C@H](Cc2c[nH]c3ccccc23)NC(=O)[C@@H](CCCN=C(N)N)NC(=O)[C@H](CC(N)=O)NC(=O)[C@H](C(C)C)NC(=O)[C@@H](CC(C)C)NC1=O,,,turbidity,,MIC90,,H37Ra,0.33 µM
CSc1cc(Br)ccc1-n1c(C(=O)c2ccccc2)c(SC)n(-c2ccccc2)c1=O,,,BACTEC,12.5 µg/mL,inhibition,,H37Rv,32%
NC(=O)c1cn(-c2ccc([N+](=O)[O-])cc2F)c2cc(N3CCNCC3)c(F)cc2c1=O,,,BACTEC,6.25 µg/mL,inhibition,,H37Rv,0%
COc1ccc2c(c1)c(CC(N)=O)c(C)n2Cc1ccccc1,,,resazurin,,MIC bound,,H37Rv,>6.25 µg/mL
O=C(/C=C/c1ccc([O-])c(C[O-])c1)c1cccc(O)c1,,,,,EC50,,,<12.5 µg/mL
Cc1c(S(=O)(=O)c2ccccc2)[n+](=O)c2cc(Cl)ccc2n1[O-],,,,,MIC,,H37Rv,6.25 µg/mL
CCN(CC)CCOc1ccc(NC(=S)Nc2ccc(OCC(C)C)cc2)cc1,,,,,MIC,,H37RV #80,16.6 µg/mL
Cc1ccc(-c2cc(-c3ccc(Cl)cc3)nc(/N=C3\C(=O)N(CN4CCCCC4)c4ccc(Br)cc43)n2)cc1,,,BACTEC,,EC50,,H37Rv,<6.25 µg/mL
CN1CCN(c2cc3c(cc2F)c(=O)c(C(=O)O)cn3-c2ccc(F)cc2)CC1,,,,,MIC50,,27 strains,4 µg/mL
CCn1cc(C(=O)O)c(=O)c2cc(F)c(N3CCN(CC(=O)c4ccccc4)CC3)cc21,,,BACTEC,6.25 µg/mL,inhibition,,H37Rv,53%
Cc1ccc2c(c1)[n+](=O)c(Sc1ccccc1)c(CBr)n2[O-],,,,,MIC,,H37Rv,>6.25 µg/mL
CCOC(=O)/N=C1\SC2(CC(C)=C(C)CS2=O)C(O)=C1C(=O)OCC,,,resazurin,6.25 µg/mL,inhibition,,H37Rv,23%
O=C1CC(c2ccccc2)Oc2ccc(I)cc21,,,,,EC50,,,>12.5 µg/mL
CC(C)C[C@@H]1NC(=O)[C@H](Cc2c[nH]c3ccccc23)NC(=O)[C@@H](CCCCN)NC(=O)[C@H](CC(N)=O)NC(=O)[C@H](C(C)C)NC(=O)[C@@H](CC(C)C)NC1=O,,,turbidity,,MIC,,H37Ra,0.37 µM
COc1ccccc1C=NNC(=O)c1cnc2c(ccc3[nH]c(Cl)cc(C)c32)c1=O,,,,,MIC,,H37Rv,250 µg/mL
CC(C)C[C@@H]1NC(=O)[C@H](Cc2c[nH]c3ccccc23)NC(=O)[C@H](CCCCN)NC(=O)[C@H](CC(N)=O)NC(=O)[C@H](C(C)C)NC(=O)[C@@H](CC(C)C)NC1=O,,,turbidity,,MIC90,,H37Ra,>30 µM
Cc1cc(Cl)[nH]c2ccc3c(=O)c(C(=O)NN)cnc3c12,,,,,MIC,,H37Rv,200 µg/mL
Cc1ccc(-c2cc(-c3ccc(Cl)cc3)nc(/N=C3\C(=O)Nc4ccccc43)n2)cc1,,,BACTEC,6.25 µg/mL,inhibition,,H37Rv,97%
CC(C)C[C@@H]1NC(=O)[C@H](Cc2c[nH]c3ccccc23)NC(=O)[C@@H](CCCN)NC(=O)[C@H](CC(N)=O)NC(=O)[C@H](C(C)C)NC(=O)[C@@H](CC(C)C)NC1=O,,,turbidity,,EC50,,H37Rv,2.12 µM
CC(=O)Nc1ccc(-n2cc(C(=O)O)c(=O)c3cc(F)c(N4CCN(C)CC4)cc32)c(F)c1,,,BACTEC,6.25 µg/mL,inhibition,,H37Rv,18%
Cc1c(S(=O)(=O)c2ccccc2)[n+](=O)c2ccc(Cl)cc2n1[O-],,,,,MIC,,H37Rv,6.25 µg/mL
CCCCCc1cc(/C=C2/N=C(c3ccc[nH]3)C=C2OC)[nH]c1C,,,,,MIC,,KM-R,1.6 µg/mL
CCOc1cc2c(cc1F)n([O-])c(C)c(Cl)[n+]2=O,,,,,MIC,,H37Rv,3.13 µg/mL
Cc1ccc(-c2cc(-c3ccc(Cl)cc3)nc(/N=C3\C(=O)N(CN4CCOCC4)c4ccc(Cl)cc43)n2)cc1,,,BACTEC,6.25 µg/mL,inhibition,,H37Rv,86%
CC1(C)CC[C@]2(C(=O)O)CC[C@]3(C)C(=CC[C@@H]4[C@@]5(C)CC[C@H](O)C(C)(C)[C@@H]5CC[C@]43C)[C@@H]2C1,,,BACTEC,,MIC bound,,H37Rv,>12.5 µg/mL
CCn1cc(C(=O)O)c(=O)c2cc(F)c(N3CCN(CC(C)=O)CC3)c(F)c21,,VERO,BACTEC,6.25 µg/mL,inhibition,,H37Rv,99%
Cc1c(Cl)[n+](=O)c2ccc(Cl)cc2n1[O-],,,,,MIC,,H37Rv,6.25 µg/mL
Cc1cc(Cl)[nH]c2ccc3c(=O)c(C(=O)NN=Cc4cc([N+](=O)[O-])ccc4O)cnc3c12,,,,,MIC,,H37Rv,500 µg/mL
Oc1cc(-c2ccccc2)ccc1Oc1ccc(Cl)cc1Cl,,,,,MIC,,Clinical isolate 5071,27 µM
CC1(C)CCC(NC(=O)c2cc3c(C#N)ccnc3[nH]2)CC1,,,resazurin,,MIC90,,H37Rv,0.017 µg/mL
CCC#CC#CCN(C)c1cccc2c1CCC(=O)N2,,,,,MIC,,H37Rv,>6.25 µg/mL
O=C(N=Nc1c(O)[nH]c2ccccc12)c1ccco1,,,resazurin,,MIC50,,H37Rv,>50 µg/mL
O=C1OCC2(C(=O)O)C(=O)OCC12,,,BACTEC,,MIC bound,,H37Rv,>12.5 µg/mL
O=C(N=Nc1c(O)[nH]c2ccccc12)c1ccc(Cl)cc1,,,resazurin,,MIC50,,H37Ra,>50 µg/mL
C=CC1=C(C)C2=NC1=CC1=NC(=CC3=C(C)C4=C(O)C(C(=O)OC)C(=C5NC(=C2)C(C)C5CCC(=O)OC/C=C(\C)CCCC(C)CCCC(C)CCCC(C)C)C4=N3)C(CC)=C1C,,,BACTEC,,MIC,,H37Rv,≥128 µg/mL
Nc1ccc(C(=O)O)c(O)c1,,,agar,,EC50,,35 strains,<10 µg/mL
Cc1nccc2c(C)c3sc4ccccc4c3cc12,,,resazurin,6.25 µg/mL,inhibition,,H37Rv,100%
O=C(c1ccc([N+](=O)[O-])o1)N1CCc2cc(N3CCN(Cc4ccccc4)CC3)ccc2C1,,,,,MIC,,CDC1551,0.1 µg/mL
O=C(/C=C/c1ccccc1)c1cc(I)ccc1O,,,,,EC50,,,<12.5 µg/mL
Cl.NCCc1nc(-c2nc(C(=O)Nc3ccccc3)cs2)cs1,,,BACTEC,,MIC,,H37Rv,≥12.8 µg/mL
Cc1cc(Cl)[nH]c2ccc3c(=O)c(C(=O)NN4C(=O)C(Cl)C4c4ccc(Cl)cc4)cnc3c12,,,,,MIC,,H37Rv,100 µg/mL
O=C(NNCC(F)(F)F)c1ccncc1,,,BACTEC,0.5 µM,inhibition,,,0%
Cc1ccc(-c2cc(-c3ccc(Cl)cc3)nc(/N=C3\C(=O)N(CN(C)C)c4ccc(Cl)cc43)n2)cc1,,,BACTEC,,EC50,,H37Rv,<6.25 µg/mL
O=C(O)c1ccc(N2C(=O)c3cccc([N+](=O)[O-])c3C2=O)cc1O,,,resazurin,,MIC50,,H37Rv,0.39 µg/mL
C=C1C(=O)OC2C1C(OC(=O)/C(C)=C/C)CC(O)(CCl)C1C(OC(C)=O)C=C(C)C21O,,,BACTEC,,MIC,,H37Rv,≥12.8 µg/mL
Cc1cc(C(=O)N=Nc2c(O)[nH]c3ccccc23)n[nH]1,,,resazurin,,MIC50,,H37Rv,>50 µg/mL
O=C(OCCN=c1c2ccccc2ccc2ccccc12)c1ccccc1,,,BACTEC,12.5 µg/mL,inhibition,,H37Rv,16%
COc1ccc(C(=O)CN2CCN(c3cc4c(cc3F)c(=O)c(C(=O)O)cn4-c3ccc(N)cc3F)CC2)cc1,,,BACTEC,6.25 µg/mL,inhibition,,H37Rv,31%
CCc1cc(C(N)=S)ccn1,,,agar,5 µg/mL,inhibition,,592 strains,88%
COc1c(N2CCNC(C)C2)c(F)cc2c(=O)c(C(=O)O)cn(C3CC3)c12,,,,,MIC,,NCTC7146,0.25 µg/mL
NNC(=O)c1ccncc1,,,,,MIC,,H37RV #225,<0.5 µg/mL
CC1CN(C(=O)/C=C/C(=O)OC2CCCCC2)CCN1C(=O)/C=C/C(=O)OC1CCCCC1,,,,,MIC,,RMP-R,6.3 µg/mL
O=[N+]([O-])c1ccc(C2=NOC(c3ccc(N4CCN(Cc5ccccc5)CC4)cc3)C2)o1,,,,,MIC,,H37Rv,0.006 µg/mL

Inhibition is in % at the dose shown (toxicity tests: loss of growth or viability). Rows are shuffled and stem from different studies. An empty or dashed field is not shown. A number after MIC or MFC names an inhibition level or a share of isolates. MIC bound: limit read from a one-dose screen.